Compound potency records, mixed from different reports. Data source: NIAID ChemDB in PubChem.

All rows: tests on isolated targets; organism: HIV-2; protein: Reverse transcriptase; read-out: IC50

Conditions beyond the fields shown may differ between rows. ICn: concentration for n% inhibition. An empty or dashed field is not shown.

| structure | strain | changes | read by | value |
|---|---|---|---|---|
| CC(C)=CCN1Cc2cccc3[nH]c(=S)n(c23)C[C@@H]1C | - | - | nucleotide incorporation | >140 µM |
| O=S1(c2ccccc2)=NC(=S)Nc2ccccc21 | - | - | nucleotide incorporation | >300 µM |
| CCN1c2ncccc2N(C)C(=S)c2sc3cccnc3c21 | - | - | - | >350 µM |
| COC(=O)C(Cc1ccccc1)NC(=O)[C@@H](NC(=O)[C@@H](C[C@H](O)[C@H](CC1CCCCC1)NC(=O)[C@@H](NC(=O)[C@H](Cc1ccccc1)CS(=O)(=O)C(C)(C)C)C(C)C)C(C)C)C(C)C | ROD | - | nucleotide incorporation | 462 µM |
| COc1ccc(OC)c2c(=O)c(O)c[nH]c12 | - | - | radiometric | 8.7 µM |
| CCOCn1c(Cc2ccccc2)c(C(C)C)c(=O)[nH]c1=O | EHO | RT-S102L E219D | nucleotide incorporation | >1656 µM |
| CC(C)=CCN1C(=O)Nc2ccc(Cl)cc2S1(=O)=O | - | - | RT activity | >30 µM |
| Cc1cc(C)cc([C@]23SCCN2C(=O)c2ccccc23)c1 | - | - | ELISA | >200 µM |
| CC(=O)O[C@H]1c2c(c3c(c4c(-c5ccccc5)cc(=O)oc24)OC(C)(C)C=C3)O[C@H](C)[C@H]1C | - | RT-Y181I | scintillation proximity / radiometric | 0.5 µM |
| Cc1cn([C@@H]2O[C@H](CO[Si](C)(C)C(C)(C)C)[C@@]3(OS(=O)(=O)C(/C=C/CO)=C3N)[C@H]2O[Si](C)(C)C(C)(C)C)c(=O)[nH]c1=O | - | - | nucleotide incorporation | >500 µM |
| CC(C)=CCN1C(C)C(=O)Nc2ccc(Cl)cc2S1(=O)=O | - | - | RT activity | >30 µM |
| CC(=O)c1ccc(C)cc1NC(C(N)=O)c1c(Cl)cccc1Cl | EHO | - | nucleotide incorporation | >1425 µM |
| COC(=O)/C=C/C1=C(N)C2(OS1(=O)=O)[C@@H](CO[Si](C)(C)C(C)(C)C)O[C@@H](n1cc(C)c(=O)[nH]c1=O)[C@@H]2O[Si](C)(C)C(C)(C)C | - | - | nucleotide incorporation | >500 µM |
| Cc1c(Sc2ccccc2)n(COCCO)c(=O)[nH]c1=O | - | - | nucleotide incorporation | >1200 µM |

For reference, 2 entries again:

structure,strain,changes,read by,value
CC(C)=CCN1C(C)C(=O)Nc2ccc(Cl)cc2S1(=O)=O,-,-,RT activity,>30 µM
COC(=O)C(Cc1ccccc1)NC(=O)[C@@H](NC(=O)[C@@H](C[C@H](O)[C@H](CC1CCCCC1)NC(=O)[C@@H](NC(=O)[C@H](Cc1ccccc1)CS(=O)(=O)C(C)(C)C)C(C)C)C(C)C)C(C)C,ROD,-,nucleotide incorporation,462 µM